Results of unrelated studies side by side (data: NIAID ChemDB).

Shared fields: tests on isolated targets; organism: HIV-1; target: Reverse transcriptase; measure: IC50

ICn is the concentration giving n% inhibition.

SMILES | strain | changes | read by | value
C/C(=C\C=C\[C@@H](C)C1CC[C@@]2(C)[C@@H]3CC[C@H]4C(C)(C)C(=O)CC[C@]4(C)[C@@]3(O)CC[C@]12C)C(=O)O | - | - | RT activity / radiometric | 102 µM
Cc1ccc2c(c1)c(=O)c(C(=O)Nc1ccc(Cl)cc1)cn2[C@@H]1O[C@H](CO)[C@@H](O)[C@H]1O | HXB2 | - | nucleotide incorporation / absorbance | 3.6–5 µM
C#CC1(c2ccccc2)c2cc(Cl)ccc2NC(=O)N1C | - | - | - | 0.043 µM
CCCN(C)c1nc([C@@H](C)c2c(F)cccc2F)c(C)c(=O)[nH]1 | - | Y1811 | RT activity | >20 µM
Cc1cn([C@H]2CC[C@@H](COP(=O)(O)OP(=O)(O)OP(=O)(O)O)[C@@H]2F)c(=O)[nH]c1=O | - | - | RT activity | 16.5 µM
Cc1cc2c(C(C)C)c(O)c(O)c(C=NCCS(=O)(=O)O)c2c(O)c1-c1c(C)cc2c(C(C)C)c(O)c(O)c(C=NCCS(=O)(=O)O)c2c1O | LAV | - | HPLC | 16 µM
Cc1cc(C)c(-n2nnnc2SCC(=O)Nc2cc(F)ccc2F)c(C)c1 | - | - | nucleotide incorporation / radiometric | <2 µM
CCN1c2cccnc2N(C)C(=O)c2ccc(C)nc21 | - | - | nucleotide incorporation | >>1 µM
CSCSc1cc(Cc2ccccc2)c(C(C)C)c(=O)[nH]1 | - | - | scintillation proximity | 6.6 µM
CN(C)C(=O)/C=C/CSc1nc(N)cc(Cl)n1 | RT-WT | - | nucleotide incorporation | 0.2 µM
COC(=O)C(CO)N=Cc1c(O)c(O)c(C(C)C)c2cc(C)c(-c3c(C)cc4c(C(C)C)c(O)c(O)c(C=NC(CO)C(=O)OC)c4c3O)c(O)c12 | LAV | - | HPLC | 14.4 µM
CCC1(c2ccc(COc3ccccc3Cl)cc2)Oc2ccccc2-n2cccc2C1=O | - | RT-Y188L | nucleotide incorporation / radiometric | >10 µM
CNC(=O)[C@@H](Cc1c[nH]c2ccccc12)NC(=O)OC[C@H]1O[C@@H](n2cc(C)c(=O)[nH]c2=O)C[C@@H]1N=[N+]=[N-] | - | - | radiometric | >100 µM
CC(=O)Oc1c(-c2c(C)cc3c(C(C)C)c(O)c(O)c(C#N)c3c2OC(C)=O)c(C)cc2c(C(C)C)c(O)c(O)c(C#N)c12 | LAV | - | HPLC | >100 µM
O=C(CSc1nnnn1-c1c(Cl)cccc1Cl)Nc1ccccc1Cl | - | - | nucleotide incorporation / radiometric | <2 µM
Nc1nc2c(ncn2[C@H]2C=C[C@@H](COP(=O)(O)OP(=O)(O)OP(=O)(O)O)C2)c(=O)[nH]1 | - | - | RT activity | 0.05 µM
COc1ccc2c(c1)N(C(=O)OC(C)C)[C@@H](CSC)C(=S)N2 | - | RT-Y181C | scintillation proximity / radiometric | 0.56 µM
Cc1c(Sc2ccccc2)n(COCCO)c(=O)[nH]c1=O | - | RT-Y188L | nucleotide incorporation | >10 µM
Cc1cc(C)c(-n2nnnc2SCC(=O)Nc2ccc(-n3cccn3)cc2)c(C)c1 | - | - | nucleotide incorporation / radiometric | <2 µM
COC(=O)/C(C)=C/C=C/[C@@H](C)C1CC[C@@]2(C)[C@@H]3CC[C@H]4C(C)(C)C(=O)CC[C@]4(C)C3=CC[C@]12C | - | - | RT activity / radiometric | 107 µM
Cc1cc(S(N)(=O)=O)ccc1NC(=O)COc1ccc(Br)c(Oc2cc(C#N)cc(C#N)c2)c1F | - | - | scintillation proximity / radiometric | 0.0191 µM
C[C@H]1CN2CCC[C@H]3CCCCC[C@@H]4C(=O)[C@@H](C)CN5CCC[C@@H](CCCCC[C@H](C1=O)[C@@H]32)[C@H]45 | - | - | nucleotide incorporation / radiometric | 10.6 µM
Cc1cn([C@H]2C=C[C@@H](COP(=O)(O)OP(=O)(O)OP(=O)(O)O)O2)c(=O)[nH]c1=O | - | RT-V106A P225H | nucleotide incorporation / radiometric | 0.07 µM
Cc1cccc(CSc2nc(N)cc(Cl)n2)c1 | - | RT-P236L | nucleotide incorporation | 0.045 µM
Cc1cc2c(C(C)C)c(O)c(O)c(C=Nc3ccccc3)c2c(O)c1-c1c(C)cc2c(C(C)C)c(O)c(O)c(C=Nc3ccccc3)c2c1O | LAV | - | HPLC | >100 µM
CCN1c2cccnc2N(C)C(=O)c2cc(Br)cnc21 | - | - | nucleotide incorporation | >>1 µM
CNC(=O)[C@@H](Cc1ccccc1)NC(=O)OC[C@H]1O[C@@H](n2cc(C)c(=O)[nH]c2=O)C[C@@H]1N=[N+]=[N-] | - | - | radiometric | >100 µM
COc1cc(-c2ccc(N=Nc3c(S(=O)(=O)[O-])cc4cc(S(=O)(=O)[O-])cc(N)c4c3O)c(OC)c2)ccc1N=Nc1c(S(=O)(=O)[O-])cc2cc(S(=O)(=O)[O-])cc(N)c2c1O.[Na+].[Na+].[Na+].[Na+] | RF | - | RT activity | 1.1 µM
COC(=O)c1ccccc1NC(=O)CSc1nnnn1-c1cccc2ccccc12 | - | - | nucleotide incorporation / radiometric | <2 µM
Cc1cc(-c2ccc(N=Nc3ccc4c(S(=O)(=O)O)cc(S(=O)(=O)O)c(N)c4c3O)c(C)c2)ccc1N=Nc1ccc2c(S(=O)(=O)O)cc(S(=O)(=O)O)c(N)c2c1O | RF | - | RT activity | 37.2 µM
Nc1ncnc2c1ncn2[C@@]12C[C@H](O)[C@@H](COP(=O)(O)OP(=O)(O)OP(=O)(O)O)[C@@H]1C2 | - | - | nucleotide incorporation / radiometric | >10 µM
Cc1cc(-c2ccc(N=Nc3c(S(=O)(=O)O)cc4cc(S(=O)(=O)O)cc(N)c4c3O)c(C)c2)ccc1N=Nc1c(S(=O)(=O)O)cc2cc(S(=O)(=O)O)cc(N)c2c1O | RF | - | RT activity | 1.3 µM
Cc1cc2c(C(C)C)c(O)c(O)c(C=Nc3ccc(C(=O)O)cc3)c2c(O)c1-c1c(C)cc2c(C(C)C)c(O)c(O)c(C=Nc3ccc(C(=O)O)cc3)c2c1O | LAV | - | HPLC | 6.2 µM
COC(=O)[C@H](Cc1ccccc1)NC(=O)OC[C@H]1O[C@@H](n2cc(C)c(=O)[nH]c2=O)C[C@@H]1N=[N+]=[N-] | - | - | radiometric | >100 µM
Cc1cc(C)c(-n2nnnc2SCC(=O)Nc2cc(C)ccc2Cl)c(C)c1 | - | - | nucleotide incorporation / radiometric | <2 µM
CNC(=O)[C@H](Cc1c[nH]c2ccccc12)NC(=O)OC[C@H]1O[C@@H](n2cc(C)c(=O)[nH]c2=O)C[C@@H]1N=[N+]=[N-] | - | - | radiometric | >100 µM
CCN1c2cc(-c3cccc(N)c3)cnc2N(C)C(=O)c2cccnc21 | - | - | nucleotide incorporation | >>1 µM
CCCC(=O)c1c(O)c(CC2(C)C(=O)C(C(=O)C(C)CC)=C(O)C(C)=C2O)c(O)c(C)c1OC | LAV | - | HPLC | 2 µM
CCC1(c2ccc(CNc3cccc(F)c3)cc2)Oc2ccccc2-n2cccc2C1=O | - | RT-L100I | nucleotide incorporation / radiometric | 2.5 µM
Cc1cc(=O)oc2c3c(c4c(c12)OC(C)(C)C=C4)O[C@H](C)[C@@H](C)[C@@H]3O | - | - | nucleotide incorporation | 12.3 µM
Nc1cc(O)c2cc(N=Nc3ccc(N=Nc4ccc(N=Nc5ccc6cc(S(=O)(=O)O)cc(S(=O)(=O)O)c6c5)c5ccccc45)c4cc(S(=O)(=O)O)ccc34)c(S(=O)(=O)O)cc2c1 | RF | - | RT activity | 5.6 µM
CC(C)c1ccccc1-n1nnnc1SCC(=O)Nc1ccccc1Cl | - | - | nucleotide incorporation / radiometric | <2 µM
CCC1(c2cccc(I)c2)Oc2ccccc2-n2cccc2C1=O | - | RT-Y188L | nucleotide incorporation / radiometric | >10 µM
CCc1cc(CCc2nc3c(Cl)ccc(Cl)c3o2)c(=O)[nH]c1C | - | - | nucleotide incorporation | 0.017 µM
COC(=O)[C@H](Cc1ccccc1)NP(=O)(O)OC[C@H]1O[C@@H](n2cc(C)c(=O)[nH]c2=O)C[C@@H]1N=[N+]=[N-] | - | - | radiometric | >100 µM
Nc1nc2c(ncn2[C@H]2CC[C@@H](COP(=O)(O)OP(=O)(O)OP(=O)(O)O)O2)c(=O)[nH]1 | - | RT-P225H | nucleotide incorporation / radiometric | 0.086 µM
Nc1nc(=O)n([C@H]2C=C[C@@H](COP(=O)(O)OP(=O)(O)OP(=O)(O)O)O2)cc1F | - | - | - | 0.27 µM
Cc1cc(C)c(-n2nnnc2SCC(=O)Nc2cccc(F)c2C)c(C)c1 | - | - | nucleotide incorporation / radiometric | <2 µM
Cc1cc2c(C(C)C)c(O)c(O)c(/C=N/O)c2c(O)c1-c1c(C)cc2c(C(C)C)c(O)c(O)c(/C=N/O)c2c1O | LAV | - | HPLC | 3.2 µM
Cc1cc(C)c(-n2nnnc2SCC(=O)Nc2sccc2C#N)c(C)c1 | - | - | nucleotide incorporation / radiometric | <2 µM
Nc1ccn([C@H]2CC[C@@H](COP(=O)(O)OP(=O)(O)OP(=O)(O)O)O2)c(=O)n1 | - | RT-V106A | nucleotide incorporation / radiometric | 3.23 µM

The last 7 rows once more:

SMILES | strain | changes | read by | value
COC(=O)[C@H](Cc1ccccc1)NP(=O)(O)OC[C@H]1O[C@@H](n2cc(C)c(=O)[nH]c2=O)C[C@@H]1N=[N+]=[N-] | - | - | radiometric | >100 µM
Nc1nc2c(ncn2[C@H]2CC[C@@H](COP(=O)(O)OP(=O)(O)OP(=O)(O)O)O2)c(=O)[nH]1 | - | RT-P225H | nucleotide incorporation / radiometric | 0.086 µM
Nc1nc(=O)n([C@H]2C=C[C@@H](COP(=O)(O)OP(=O)(O)OP(=O)(O)O)O2)cc1F | - | - | - | 0.27 µM
Cc1cc(C)c(-n2nnnc2SCC(=O)Nc2cccc(F)c2C)c(C)c1 | - | - | nucleotide incorporation / radiometric | <2 µM
Cc1cc2c(C(C)C)c(O)c(O)c(/C=N/O)c2c(O)c1-c1c(C)cc2c(C(C)C)c(O)c(O)c(/C=N/O)c2c1O | LAV | - | HPLC | 3.2 µM
Cc1cc(C)c(-n2nnnc2SCC(=O)Nc2sccc2C#N)c(C)c1 | - | - | nucleotide incorporation / radiometric | <2 µM
Nc1ccn([C@H]2CC[C@@H](COP(=O)(O)OP(=O)(O)OP(=O)(O)O)O2)c(=O)n1 | - | RT-V106A | nucleotide incorporation / radiometric | 3.23 µM

a–b is a range or a potency band. Rows are shuffled and stem from different studies. An empty or dashed field is not shown.